# Library screen at single concentrations

Mtb glucose medium: 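Whole-cell growth test on Mycobacterium tuberculosis, read after 3 days in glucose-containing 7H9 medium; the read-out is not stated. Compounds at 500 µM. Higher reads as more growth inhibition (inferred: compounds with an IC50 in retests scored well above the rest). About 18,000 compounds were tested under these conditions; 7.9% (about 1,400) showed 50% or more at least once.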
Mtb cholesterol medium: 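Phenotypic screen: M. tuberculosis growth, cholesterol and DPPC medium, 4 days; the read-out is not stated. Concentration: 500 µM. Higher reads as more growth inhibition (inferred: compounds with an IC50 in retests scored well above the rest). Of about 18,000 compounds tested this way, about 900 (5%) reached 50% or more in at least one test.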

Values are the deposited “Percent Effect”, in %. The controls that fix the scale are not given in the record; negative values are as filed. The entries come from a sample that favours strong results.

{"compound": "COc1cccc(-c2cc(N)n(C)n2)c1", "Mtb cholesterol medium": 18.11}
{"compound": "CNc1cccnc1N(C)C", "Mtb glucose medium": 18.22}
{"compound": "Cc1cccc(NCCC[S+](C)[O-])n1", "stereo": "stereo unspecified", "Mtb cholesterol medium": 0.8088}
{"compound": "CN(C)c1cc(CNC(=O)c2ccccn2)ccn1", "Mtb glucose medium": 22.94}
{"compound": "CN(Cc1nccs1)C(=O)C1COc2ccccc2C1", "stereo": "stereo unspecified", "Mtb glucose medium": 63.35}
{"compound": "NC(CO)c1ccc(F)cc1F", "stereo": "stereo unspecified", "Mtb glucose medium": 3.52}
{"compound": "CCOc1cccc(CN2CCN(CCO)CC2)c1O", "Mtb cholesterol medium": 8.363}
{"compound": "COCCNC(=O)CN1CCCC(C(F)(F)F)C1", "stereo": "stereo unspecified", "Mtb glucose medium": 44.63}
{"compound": "COc1cccc(OC)c1CNC(C)=O", "Mtb cholesterol medium": 11.85}
{"compound": "CN(C)CC(=O)Nc1ccc(S(N)(=O)=O)cc1", "Mtb cholesterol medium": -11.87}
{"compound": "c1coc(-c2nc(N3CCOCC3)no2)c1", "Mtb cholesterol medium": -14.78}
{"compound": "CSCC[C@H](NC(C)=O)C(=O)NCCn1ccnc1C", "Mtb glucose medium": 3.415}
{"compound": "CCOC(=O)C1CCc2sc(N)c(C#N)c21", "stereo": "stereo unspecified", "Mtb cholesterol medium": 11.42}
{"compound": "CCN1CCN(c2ccc(NC(=O)C(C)C)cc2)CC1", "Mtb glucose medium": -5.102}
{"compound": "NC[C@@H](O)c1ccc(Cl)cc1", "Mtb glucose medium": 36.96, "Mtb cholesterol medium": 13.36}
{"compound": "COc1ccc(NC(=O)NC2CCNC2=O)c(C)c1", "stereo": "stereo unspecified", "Mtb cholesterol medium": -0.5742}
{"compound": "CS(=O)(=O)N1CCC(C(=O)NCC2CCCO2)CC1", "stereo": "stereo unspecified", "Mtb glucose medium": 6.221}
{"compound": "CN(C)C(=O)Cn1ncc2ccccc21", "Mtb cholesterol medium": -5.767}
{"compound": "NCCCN1CCOC1=O", "Mtb glucose medium": -3.624}
{"compound": "CC(Oc1ccc2c(c1)OCO2)C(=O)NC1CC1", "stereo": "stereo unspecified", "Mtb cholesterol medium": 52.05}
{"compound": "OC1CCCN(CCCNC2CCSCC2)C1", "stereo": "stereo unspecified", "Mtb glucose medium": 13.31}
{"compound": "CC(C)CNC(=O)c1cc2ncc(Br)cn2n1", "Mtb cholesterol medium": -3.141}

Some entries from above, unchanged:

* COCCNC(=O)CN1CCCC(C(F)(F)F)C1 (stereo unspecified) | Mtb glucose medium: 44.63%
* OC1CCCN(CCCNC2CCSCC2)C1 (stereo unspecified) | Mtb glucose medium: 13.31%

Data taken from ChEMBL document CHEMBL3988442, “University of Dundee, Small-Polar-MMV Screening Library” (2021).